# Reference: PubChem BioAssay AID624099 (ICCB-Longwood, 2012)
# Test: 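Knock-downs relieving repression by E2 of an HPV18 LCR luciferase reporter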 (primary screen)
# System: human C33A cervical carcinoma cells (HPV-negative) stably expressing BPV1 E2 and an HPV18 LCR luciferase reporter
# Knock-down reagent: siRNA pool against human genes, 40 nM
# Time to read-out: 72 h
# Measurement: 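HPV18 LCR reporter light per well, converted to plate-wise z-scores that exclude control wells, and averaged over triplicate plates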
# Reading the numbers: mean z-score and z-score: higher = stronger reporter signal, weaker E2 silencing
# Hit rule: 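Hit if mean z-score reaches 2 and two or more of three replicate z-scores also reach 2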
# In all, the deposit lists about 21,000 reagents; below is a random part of them. 497 of them (2.4%) were called active. 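Higher z means weaker E2 silencing; only reporter increases were scored, and knock-downs that hurt cell survival may mask genuine repressor factors.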
The first 2 records, ahead of the listing:
gene,mean z-score,"z-score, replicate A","z-score, replicate B","z-score, replicate C",activity call
OR14J1 (olfactory receptor family 14 subfamily J member 1),0.2,0.5,-0.02,0.12,inactive
GDI1 (GDP dissociation inhibitor 1),1.08,1.47,0.69,1.08,inactive

The list itself, from the start:
gene,mean z-score,"z-score, replicate A","z-score, replicate B","z-score, replicate C",activity call
OR14J1 (olfactory receptor family 14 subfamily J member 1),0.2,0.5,-0.02,0.12,inactive
GDI1 (GDP dissociation inhibitor 1),1.08,1.47,0.69,1.08,inactive
GARRE1 (granule associated Rac and RHOG effector 1),-0.72,-0.74,-0.88,-0.54,inactive
HEMK2,-0.19,0.04,-0.38,-0.23,inactive
RHOBTB2 (Rho related BTB domain containing 2),-0.36,-0.28,-0.33,-0.47,inactive
MTCH1,0.08,-0.03,0.45,-0.19,inactive
CRIM1 (cysteine rich transmembrane BMP regulator 1),0.54,0.45,0.43,0.74,inactive
DHRS7B (dehydrogenase/reductase 7B),-0.81,-0.64,-0.63,-1.15,inactive
EGLN3 (egl-9 family hypoxia inducible factor 3),0.27,0.02,0.3,0.51,inactive
STXBP4 (syntaxin binding protein 4),-0.2,-0.41,-0.23,0.04,inactive
MANEA (mannosidase endo-alpha),-0.84,-0.58,-1.13,-0.8,inactive
LOC400605 (retired record),0.16,-0.17,0.19,0.45,inactive
MARK4 (microtubule affinity regulating kinase 4),-0.71,-0.22,-0.98,-0.92,inactive
CTNNA3 (catenin alpha 3),-0.48,-0.58,-0.42,-0.43,inactive
LOC389271 (retired record),-0.61,-0.62,-0.7,-0.53,inactive
PSMB8 (proteasome 20S subunit beta 8),0.88,0.79,0.8,1.06,inactive
BHLHE22-AS1 (BHLHE22 antisense RNA 1),0.52,0.68,0.37,0.5,inactive
BID (BH3 interacting domain death agonist),0.79,0.9,0.74,0.74,inactive
GOSR2 (golgi SNAP receptor complex member 2),-0.75,-0.67,-0.62,-0.94,inactive
C19orf33 (chromosome 19 open reading frame 33),0.73,-0.14,0.74,1.59,inactive
MCHR1 (melanin concentrating hormone receptor 1),1.61,1.8,1.34,1.68,inactive
INPP4B (inositol polyphosphate-4-phosphatase type II B),1.84,1.64,2.02,1.86,inactive
PRP4K (pre-mRNA processing factor kinase PRP4K),-1.56,-1.66,-1.47,-1.54,inactive
